Compound potency records, mixed from different reports. Data source: NIAID ChemDB in PubChem.

Common to all: toxicity to cultured cells; cell line: PBMC; read-out: CC50

An empty or dashed field is not shown. a–b is a range or a potency band. Rows are shuffled and stem from different studies. CCn is the concentration with n% toxicity to the cells.

{"SMILES": "CCCCN1C(=O)C(CC2CCCCC2)NC(=O)C12CCN(Cc1ccc3c(c1)OCCO3)CC2", "value": "51.8 µM"}
{"SMILES": "Cc1cn([C@H]2C=C[C@@H](CO)O2)c(=O)[nH]c1=O", "value": "70 µM"}
{"SMILES": "CCCCC1(CCCC)OCC(C)(CS(=O)(=O)c2ccc(Cl)cc2)OO1", "method": "MTT", "value": ">100 µM"}
{"SMILES": "Nc1nc(=O)n([C@H]2C=C(F)[C@@H](CO)S2)cc1F", "method": "MTT", "value": ">100 µM"}
{"SMILES": "Nc1nc2c(ncn2[C@H]2OC[C@@](F)(CCP(=O)(O)O)[C@H]2F)c(=O)[nH]1", "method": "MTT", "value": ">100 µM"}
{"SMILES": "Cc1cn([C@H]2C=C[C@@H](CO)O2)c(=O)[nH]c1=O", "value": "28 µM"}
{"SMILES": "Nc1ncnc2c1ncn2[C@H]1CC[C@@H](CO)O1", "value": "100 µM"}
{"SMILES": "Cc1cn([C@H]2C[C@H](N=[N+]=[N-])[C@@H](CO)O2)c(=O)[nH]c1=O", "value": ">5.016 µM"}
{"SMILES": "CCCCCCCCC#Cc1cn(CC=C(CO)CO)c(=O)[nH]c1=O", "value": "21.9 µM"}
{"SMILES": "Cc1cn([C@@H]2C=C(F)[C@H](CO)S2)c(=O)[nH]c1=O", "method": "MTT", "value": ">100 µM"}
{"SMILES": "O=C(O)C(=O)CC(=O)c1cc(OCc2ccccc2)cc(OCc2ccccc2)c1", "method": "MTT", "value": ">10 µM"}
{"SMILES": "CC1(CSc2ccc(Cl)cc2)COC2(C[C@H]3CC(=O)C[C@H]3C2)OO1", "method": "MTT", "value": ">100 µM"}
{"SMILES": "O=c1[nH]cnc2c1ncn2[C@H]1CC[C@@H](CO)O1", "method": "MTT", "value": ">7.5 µM"}
{"SMILES": "CCCCN1C(=O)C(CC(C)C)NC(=O)C12CCN(Cc1ccc(Oc3ccccc3)cc1)CC2", "value": "10.8 µM"}
{"SMILES": "C[C@H](Cn1cnc2c(N)ncnc21)OCP(=O)(O)O", "method": "MTT", "value": ">50 µM"}
{"SMILES": "CC(C)(C)NC(=O)[C@@H]1C[C@@H]2CCCC[C@@H]2CN1C[C@@H](O)[C@H](Cc1ccccc1)NC(=O)[C@H](CC(N)=O)NC(=O)c1ccc2ccccc2n1", "value": "78 µM"}
{"SMILES": "CNC(=O)[C@H](Cc1c[nH]c2ccccc12)NC(=O)OC[C@H]1O[C@@H](n2cc(C)c(=O)[nH]c2=O)C[C@@H]1N=[N+]=[N-]", "value": ">100 µM"}
{"SMILES": "CCCCCC#Cc1cn(COCCO)c(=O)[nH]c1=O", "value": ">100 µM"}
{"SMILES": "Nc1ncnc2c1ncn2[C@H]1C=C[C@@H](CO)O1", "value": ">100 µM"}
{"SMILES": "c1cc(CN2CCCNCCNCCCNCC2)ccc1CN1CCCNCCNCCCNCC1", "value": ">100 µM"}
{"SMILES": "Cc1cn([C@H]2C[C@H](N=[N+]=[N-])[C@@H](CO)O2)c(=O)[nH]c1=O", "value": ">100 µM"}
{"SMILES": "OC[C@@H]1CC[C@H](n2cnc3c(NCc4ccccc4)ncnc32)O1", "value": "~10 µM"}
{"SMILES": "CC(C)Nc1cccnc1N1CCN(C(=O)c2cc3cc(NS(C)(=O)=O)ccc3[nH]2)CC1", "value": ">100 µM"}
{"SMILES": "Nc1ncnc2c1ncn2OCCOCP(=O)(O)O", "value": ">100 µM"}
{"SMILES": "CCOC(=O)c1cccc(Cn2ccc3ccc(-c4ccc5ccn(Cc6cccc(C(=O)O)c6)c5c4)cc32)c1", "method": "MTS", "value": ">50 µM"}
{"SMILES": "Cc1cn([C@H]2C[C@H](N=[N+]=[N-])[C@@H](CO)O2)c(=O)[nH]c1=O", "method": "MTT", "value": ">100 µM"}
{"SMILES": "CC(=O)c1cn(C/C=C/C(O)CO)c(=O)[nH]c1=O", "value": ">100 µM"}
{"SMILES": "CSc1ncnc2c1ncn2[C@H]1CC[C@@H](CO)O1", "value": "100 µM"}
{"SMILES": "CC1(C)Oc2ccc3ccc(=O)oc3c2[C@@H](OC(=O)C23CCC(C)(C(=O)O2)C3(C)C)[C@H]1OC(=O)C12CCC(C)(C(=O)O1)C2(C)C", "value": "4–20 µg/mL"}
{"SMILES": "COC(=O)[C@H](C)NP(=O)(OC[C@H]1O[C@@H](N2C(=O)NC(=O)C(C)(Br)C2OC)C[C@@H]1N=[N+]=[N-])Oc1ccc(OC)cc1", "value": ">100 µM"}
{"SMILES": "CC[C@H](C)[C@H]1NC(=O)[C@@H](NC(=O)[C@H](CC(C)C)N(C)C(=O)[C@@H]2CCCN2C(=O)C(C)=O)[C@@H](C)OC(=O)[C@H](Cc2ccc(OC)cc2)N(C)C(=O)[C@@H]2CCCN2C(=O)[C@H](CC(C)C)NC(=O)[C@@H](C)C(=O)[C@H](C(C)C)OC(=O)C[C@@H]1O", "method": "MTT", "value": "15.23 µM"}
{"SMILES": "Oc1ccc(CNCc2ccc(CNCc3ccc(O)c4ncccc34)cc2)c2cccnc12", "value": ">10 µM"}
{"SMILES": "O=c1[nH]cnc2c1ncn2[C@H]1CC[C@@H](CO)O1", "value": ">100 µM"}
{"SMILES": "Nc1ncnc2c1ncn2[C@H]1OC[C@@](F)(C=CP(=O)(O)O)[C@H]1F", "method": "MTT", "value": ">100 µM"}
{"SMILES": "COC(=O)[C@H](C)NP(=O)(OCC1C/C1=C/n1cnc2c(N)ncnc21)Oc1ccccc1", "value": "0.35 µM"}
{"SMILES": "CCCCCCCCCCCCCC(=O)OC[C@@H]1O[C@H](n2cc(F)c(N)nc2=O)CS1", "method": "MTT", "value": ">6.561 µM"}
{"SMILES": "CN(C)c1ncnc2c1ncn2[C@H]1CC[C@@H](CO)O1", "value": "100 µM"}
{"SMILES": "Oc1ccc(CN2CCCNCCNCCCNCC2)c2cccnc12", "value": ">10 µM"}
{"SMILES": "Nc1ncnc2c1ncn2CCOCP(=O)(O)O", "value": ">100 µM"}
{"SMILES": "Nc1nc2c(ncn2[C@H]2C=C[C@@H](CO)O2)c(=O)[nH]1", "method": "MTT", "value": "54.2 µM"}
{"SMILES": "Nc1nc2c(ncn2[C@H]2C[C@@](F)(CC(F)(F)P(=O)(O)O)CO2)c(=O)[nH]1", "value": "95 µM"}
{"SMILES": "COC(=O)[C@H](Cc1c[nH]c2ccccc12)NP(=O)(O)OC[C@H]1O[C@@H](n2cc(C)c(=O)[nH]c2=O)C[C@@H]1N=[N+]=[N-]", "value": ">100 µM"}
{"SMILES": "Nc1ccn([C@H]2CC[C@@H](CO)O2)c(=O)n1", "value": ">100 µM"}
{"SMILES": "Cc1c(-c2cnccn2)ssc1=S", "value": "55.6 µM"}
{"SMILES": "Nc1ccn([C@@H]2C=C(F)[C@H](CO)S2)c(=O)n1", "method": "MTT", "value": ">100 µM"}
{"SMILES": "CC(C)OC(=O)[C@H](C)N[P@](=O)(CO[C@H](C)Cn1cnc2c(N)ncnc21)Oc1ccccc1", "method": "visual reading", "value": "1.32 µM"}
{"SMILES": "O=c1ccn([C@H]2C[C@@](F)(CC(F)(F)P(=O)(O)O)CO2)c(=O)[nH]1", "value": "90 µM"}
{"SMILES": "O=c1[nH]cnc2c1ncn2[C@H]1C=C(F)[C@@H](CO)S1", "method": "MTT", "value": ">100 µM"}
{"SMILES": "CC(=O)CCCCn1c(=O)c2c(ncn2C)n(C)c1=O", "value": ">>1000 µM"}
{"SMILES": "CNc1ncnc2c1ncn2[C@H]1CC[C@@H](CO)O1", "value": ">100 µM"}
{"SMILES": "CCCCCCCCc1cc2cn(C/C=C/C(O)CO)c(=O)nc2o1", "value": "9.8 µM"}
{"SMILES": "O=c1[nH]cnc2c1ncn2[C@@H]1C=C(F)[C@H](CO)S1", "method": "MTT", "value": ">100 µM"}
{"SMILES": "CCOP(=O)(OCC)C(F)(F)C[C@@]1(F)CO[C@@H](n2ccc(N)nc2=O)C1", "value": ">100 µM"}
{"SMILES": "Cc1cn([C@H]2C[C@H](N=[N+]=[N-])[C@@H](CO)O2)c(=O)n(N)c1=O", "value": ">100 µM"}
{"SMILES": "O=c1[nH]c(=O)n(COCCO)cc1C#Cc1ccccc1", "value": ">100 µM"}
{"SMILES": "CC[C@H](C)[C@H]1NC(=O)[C@@H](NC(=O)[C@@H](C)N(C)C(=O)OCc2ccccc2)[C@@H](C)OC(=O)[C@H](Cc2ccc(OC)cc2)N(C)C(=O)[C@@H]2CCCN2C(=O)[C@H](CC(C)C)NC(=O)[C@@H](C)C(=O)[C@H](C(C)C)OC(=O)C[C@@H]1O", "method": "MTT", "value": ">48.3 µM"}
{"SMILES": "CC(C)[C@H](NC(=O)c1ccc2ccccc2n1)C(=O)N[C@@H](Cc1ccccc1)[C@H](O)CN1CC[C@@H](OCc2ccncc2)C[C@H]1C(=O)NC(C)(C)C", "value": "33 µM"}
{"SMILES": "CCOP(=O)(OCC)C(F)(F)C[C@@]1(F)CO[C@@H](n2cnc3c(N)ncnc32)C1", "value": "95 µM"}
{"SMILES": "CC[C@H](C)[C@H]1NC(=O)[C@@H](NC(=O)[C@@H](CC(C)C)N(C)C(=O)c2cc3ccccc3s2)[C@@H](C)OC(=O)[C@H](Cc2ccc(OC)cc2)N(C)C(=O)[C@@H]2CCCN2C(=O)[C@H](CC(C)C)NC(=O)[C@H](C(C)C)OC(=O)C[C@@H]1O", "method": "MTT", "value": "5.94 µM"}
{"SMILES": "CCOP(=O)(OCC)C(F)(F)C[C@@]1(F)CO[C@H](n2cc(C)c(=O)[nH]c2=O)C1", "value": ">100 µM"}
{"SMILES": "O=c1[nH]cnc2c1ncn2[C@H]1CC[C@@](F)(/C=C/P(=O)(O)O)C1", "method": "MTT", "value": "95 µM"}
{"SMILES": "CC1(C)CC[C@]2(C(=O)O)CC[C@]3(C)C(=CC[C@@H]4[C@@]5(C)CC[C@H](O[C@@H]6OC[C@@H](O)[C@H](OC7O[C@H](CO)[C@H](O)[C@H](O)[C@H]7O)[C@H]6O)C(C)(C)[C@@H]5CC[C@]43C)[C@@H]2C1", "method": "MTT", "value": "5.86 µg/mL"}
{"SMILES": "COC(=O)[C@H](Cc1c[nH]c2ccccc12)NC(=O)OC[C@H]1O[C@@H](n2cc(C)c(=O)[nH]c2=O)C[C@@H]1N=[N+]=[N-]", "value": ">100 µM"}
{"SMILES": "Cc1cn([C@@H]2C[C@@H](O)[C@H](CO)O2)c(=O)[nH]c1=O", "value": ">200 µM"}
{"SMILES": "Oc1ccc(CN2CCCNCCN(Cc3ccc(CN4CCCNCCNCCCNCC4)cc3)CCCNCC2)c2cccnc12", "value": ">10 µM"}
{"SMILES": "Nc1ncnc2c1ncn2[C@H]1CC[C@@](F)(CCP(=O)(O)O)C1", "method": "MTT", "value": "98 µM"}
{"SMILES": "O=c1cc(-c2ccccc2)oc2cc(O)c(O)c(O)c12", "value": "54 µM"}
{"SMILES": "Cc1cn([C@H]2C=C[C@@H](COC(=O)CNC(=O)C(=O)/C=C(\\O)c3cccn3Cc3ccc(F)cc3)O2)c(=O)[nH]c1=O", "method": "MTT", "value": ">10 µM"}

Repeating the final 6 entries:

SMILES,method,value
COC(=O)[C@H](Cc1c[nH]c2ccccc12)NC(=O)OC[C@H]1O[C@@H](n2cc(C)c(=O)[nH]c2=O)C[C@@H]1N=[N+]=[N-],-,>100 µM
Cc1cn([C@@H]2C[C@@H](O)[C@H](CO)O2)c(=O)[nH]c1=O,-,>200 µM
Oc1ccc(CN2CCCNCCN(Cc3ccc(CN4CCCNCCNCCCNCC4)cc3)CCCNCC2)c2cccnc12,-,>10 µM
Nc1ncnc2c1ncn2[C@H]1CC[C@@](F)(CCP(=O)(O)O)C1,MTT,98 µM
O=c1cc(-c2ccccc2)oc2cc(O)c(O)c(O)c12,-,54 µM
Cc1cn([C@H]2C=C[C@@H](COC(=O)CNC(=O)C(=O)/C=C(\O)c3cccn3Cc3ccc(F)cc3)O2)c(=O)[nH]c1=O,MTT,>10 µM